In general, IC50 refers to the concentration needed to halve the response being measured. Low values mean greater potency, high ones weaker potency.

Sequences of proteins named here, by UniProt entry; tags and fusion partners are left off. Residues count along the entry.
UniProt P36544, 23-502 limits assumed: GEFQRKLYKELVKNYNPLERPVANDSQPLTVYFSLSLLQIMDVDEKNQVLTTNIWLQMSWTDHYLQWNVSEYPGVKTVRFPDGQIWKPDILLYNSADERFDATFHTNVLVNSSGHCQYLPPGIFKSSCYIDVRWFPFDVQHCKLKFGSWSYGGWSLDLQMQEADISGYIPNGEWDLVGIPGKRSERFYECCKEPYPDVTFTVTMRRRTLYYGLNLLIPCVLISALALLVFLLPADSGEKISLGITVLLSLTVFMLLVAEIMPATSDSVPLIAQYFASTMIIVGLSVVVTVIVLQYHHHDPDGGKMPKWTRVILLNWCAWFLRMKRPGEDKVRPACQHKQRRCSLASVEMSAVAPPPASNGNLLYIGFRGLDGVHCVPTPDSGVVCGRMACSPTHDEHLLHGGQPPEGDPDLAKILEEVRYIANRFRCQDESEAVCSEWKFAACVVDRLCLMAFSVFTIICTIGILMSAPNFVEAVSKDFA

The text below walks through data of PMC7460214, “α-Conotoxin as Potential to α7-nAChR Recombinant Expressed in Escherichia coli” (2020).

The target in this test is hα7 nAChR (Homo sapiens, UniProt P36544).

In the case of `CC(C)[C@@H]1NC(=O)[C@H](Cc2cnc[nH]2)NC(=O)[C@@H]2CCCN2C(=O)[C@H](CC(N)=O)NC(=O)[C@H](CC(N)=O)NC(=O)[C@H](C(C)C)NC(=O)[C@H](CCCNC(=N)N)NC(=O)[C@@H]2CSSC[C@H](NC(=O)[C@H](CCC(=O)O)NC(=O)[C@@H](N)CC(=O)O)C(=O)N[C@@H](CSSC[C@@H](C(=O)N[C@@H](CCCNC(=N)N)C(=O)N[C@@H](CCCNC(=N)N)C(=O)N[C@@H](CCCNC(=N)N)C(=O)O)NC1=O)C(=O)N[C@@H](CO)C(=O)N[C@@H](CC(N)=O)C(=O)N1CCC[C@H]1C(=O)N[C@@H](C)C(=O)N2`, the IC50 is 18.5 nM. Take `CC(C)C[C@@H]1NC(=O)[C@H](CCCNC(=N)N)NC(=O)[C@@H]2CSSC[C@H](NC(=O)[C@H](CCC(=O)O)NC(=O)[C@@H](N)CC(=O)O)C(=O)N[C@@H](CSSC[C@@H](C(=O)N[C@@H](CCCNC(=N)N)C(=O)N[C@@H](CCCNC(=N)N)C(=O)N[C@@H](CCCNC(=N)N)C(=O)O)NC(=O)[C@H](C)NC(=O)[C@H](Cc3c[nH]cn3)NC(=O)[C@@H]3CCCN3C(=O)[C@H](CC(N)=O)NC(=O)[C@H](CC(N)=O)NC1=O)C(=O)N[C@@H](CO)C(=O)N[C@@H](CC(N)=O)C(=O)N1CCC[C@H]1C(=O)N[C@@H](C)C(=O)N2`: the IC50 worked out at 9.7 nM.
